PubChem BioAssay AID504761 | Drosophila RNAi Screening Center, 2011
The screen tested about 22,000 reagents; this is a random part of those that have a named target and a result. Over the whole deposit, 116 (0.52%) were called active. 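Calls depend on retest data that are not deposited; infection was ranked per plate without normalising between plates; the unit of the infection score is not given.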 Raw values vary from plate to plate and are shown uncorrected. A plus sign joins genes that one reagent is predicted to hit. Reagent sequences are not shown. Not given: the amount of reagent, the time to read-out.

Purpose: 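Insect host genes that dengue virus relies on to spread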 (primary screen)
System: D.Mel-2 cells from Drosophila
Knock-down reagent: long dsRNA against Drosophila genes
Conditions: infection with dengue virus type 2; dose and infection time not stated
Measured: 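Cells stained for dengue envelope protein and imaged; percent of infected cells per well on duplicate plates, ranked by infection, with stained nuclei counted for cell number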
Scale: infection score: higher = more virus-infected cells; cell count: higher = more cells in the well
Call rule: 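Low infection ranks in the two replicates (chance level up to 0.065) followed by a retest with a 1.5-fold or larger significant decrease, p below 0.05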
Calls: active = confirmed: knock-down lowers infection; inactive = not picked or not confirmed

predicted target,amplicon,"infection score, replicate 1","infection score, replicate 2","cell count, replicate 1","cell count, replicate 2",Call
CG42376 + cin,DRSC18752,3.48,9.19,6386,6832,inactive
CG42376 + cin,DRSC29294,23.3,12.4,4703,6147,inactive
Aasdh,DRSC03467,6.81,2.47,5860,6288,inactive
btz,DRSC14566,10.1,14.2,6408,6494,inactive
btz,DRSC23613,9.94,17,5402,5730,inactive
CG6610,DRSC10674,1.17,2.7,5579,5293,inactive
Ppr-Y,DRSC20892,11,4.08,6352,6689,inactive
kumpel,DRSC14883,1.33,5.69,6688,6958,inactive
kumpel,DRSC16459,6.77,3.09,6764,7044,inactive
kumpel,DRSC16460,3.86,9.31,6994,6770,inactive
kumpel,DRSC16461,9.01,5.42,6412,6881,inactive
kumpel,DRSC16462,4.78,8.33,6755,6329,inactive
kumpel,DRSC16463,9.68,2.07,6611,917,inactive
kumpel,DRSC25593,6.24,2.37,6587,6671,inactive
kumpel,DRSC27664,17.8,13.3,5764,3735,inactive
CG12605,DRSC08286,2.1,3.78,6580,6025,inactive
CG12605,DRSC28756,,,374,402,inactive
Dnaaf6,DRSC10473,2.23,0.72,6406,6089,inactive
CG4815,DRSC15653,4.19,16.2,5875,4996,inactive
CG3062,DRSC18572,0.64,2.32,472,1814,inactive
ebd2,DRSC11682,25.6,13.9,6442,6282,inactive
ebd2,DRSC28502,4.4,10.9,704,1480,inactive
ND-13A,DRSC03110,5.96,13.1,6733,5094,inactive
ND-13A,DRSC29397,,24.4,368,4849,inactive
gsb,DRSC04692,16.8,17.3,6093,5543,inactive
gsb,DRSC25821,10.8,2.37,4405,5527,inactive
CG10139,DRSC05972,12.6,15.5,6512,6304,inactive
CG8939,DRSC20127,4.91,5.47,6296,7188,inactive
CG17025 (retired record),DRSC28651,7.55,16.4,6248,5140,inactive
Brf,DRSC14166,6.68,3.4,5181,5357,inactive
Brf,DRSC14167,2.87,7.91,5994,5231,inactive
Hmt-1,DRSC15555,7.65,9.7,6381,6484,inactive
CG14456,DRSC11713,7.9,5.71,6307,6389,inactive
CG14456,DRSC26740,15.5,9.31,5858,6013,inactive
fd59A,DRSC04685,12.4,18.8,6011,6384,inactive
fd59A,DRSC25524,0.76,0.86,6213,6597,inactive
SiaT,DRSC04494,3.39,7.62,7163,6171,inactive
spir,DRSC03619,13.2,4.77,4440,6733,inactive
spir,DRSC24744,4.92,1.29,6386,6580,inactive

In a second layout: 5 of the entries above.
predicted target | amplicon | infection score, replicate 1 | infection score, replicate 2 | cell count, replicate 1 | cell count, replicate 2 | Call
CG12605 | DRSC08286 | 2.1 | 3.78 | 6580 | 6025 | inactive
CG12605 | DRSC28756 | – | – | 374 | 402 | inactive
Dnaaf6 | DRSC10473 | 2.23 | 0.72 | 6406 | 6089 | inactive
CG4815 | DRSC15653 | 4.19 | 16.2 | 5875 | 4996 | inactive
CG3062 | DRSC18572 | 0.64 | 2.32 | 472 | 1814 | inactive
